PubChem BioAssay AID504761 – Drosophila RNAi Screening Center, 2011
Screen: 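Genome-wide fly cell screen for genes dengue virus requires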 (primary screen). System: D.Mel-2 cells from Drosophila. Reagent: long dsRNA against Drosophila genes. Treatment: infection with dengue virus type 2; dose and infection time not stated. Detection: 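Cells stained for dengue envelope protein and imaged; percent of infected cells per well on duplicate plates, ranked by infection, with stained nuclei counted for cell number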. Direction: infection score: higher = more virus-infected cells; cell count: higher = more cells in the well. Hit rule: 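Very low infection ranking in both replicate wells (chance probability at most 0.065), then a retest showing infection dropped 1.5-fold or more at p below 0.05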. Calls: active = confirmed: knock-down lowers infection; inactive = not picked or not confirmed.
The screen tested about 22,000 reagents; below is an unselected part of those with a known target gene and a result. Of all reagents, 116 (0.52%) got an active call. 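Calls depend on retest data that are not deposited; infection was ranked per plate without normalising between plates; the unit of the infection score is not given.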 Raw values are not corrected between plates. Unmarked entries are inactive. The numbers tell different reagents against one gene apart. A plus sign joins genes that one reagent is predicted to hit. Reagent sequences are not shown. Not stated in the record: the amount of reagent, the time to read-out.

| target gene | reagent | infection score, replicate 1 | infection score, replicate 2 | cell count, replicate 1 | cell count, replicate 2 |
| --- | --- | --- | --- | --- | --- |
| CG18281 | 1 | 9.68 | 12.2 | 5662 | 5456 |
| CG32241 | 1 | 7.64 | 9.93 | 6384 | 5778 |
| CG32241 | 2 | 3.04 | 3.94 | 5556 | 5885 |
| CG32241 | 3 | 3.69 | 1.85 | 6430 | 6436 |
| DNAlig1 | 1 | 14.2 | 43.1 | 5662 | 4897 |
| Osbp | 1 | 1.66 | 3.31 | 6193 | 6351 |
| BTBD9 | 1 | 5.12 | 3.49 | 6305 | 6506 |
| BTBD9 | 2 | 2.85 | 5.56 | 6318 | 6597 |
| CG15005 | 1 | 4.03 | 4.54 | 6283 | 5634 |
| CG15005 | 2 | 10.8 | 7.96 | 5232 | 5751 |
| cnn | 1 | 1.45 | 10.8 | 5930 | 5495 |
| cnn | 2 | – | 1.96 | 409 | 560 |
| CG1545 | 1 | 3.16 | 6.12 | 5863 | 6910 |
| CG15742 | 1 | 1.34 | 1.5 | 7007 | 6863 |
| CG15742 | 2 | 24.7 | 22.7 | 5720 | 4117 |
| CG18213 | 1 | 2.53 | 6.36 | 6566 | 6869 |
| cyc | 1 | 2.58 | 8.73 | 6367 | 6243 |
| Dic61B | 1 | 6.13 | 5.39 | 6170 | 6757 |
| Vha36-3 | 1 | 2.65 | 14.2 | 6271 | 4877 |
| Vha36-3 | 2 | 20.5 | 25.7 | 5929 | 5879 |
| CG7910 | 1 | 8.85 | 5.69 | 6066 | 6241 |
| CG12708 + CG15646 | 1 | 1.62 | 2.23 | 7033 | 6900 |
| AIF | 1 | 7.37 | 19.1 | 5618 | 4265 |
